One assay addresses H5N2 wt NA (Influenza A virus, UniProt A0A219V3U5).
The next assay has as its target H5N6 wt NA (Influenza A virus, UniProt A0A0A0QMP7). Nature of the assay: MUNANA fluorescence-based NA inhibition assay, live virus. To be noted: read-out: IC50 ± SD, mean of n=3.
The target of the next assay is H5N8 wt NA (Influenza A virus, UniProt W8NQ88). Described as above. To be noted: read-out: IC50 ± SD, mean of n=3.

As to `CC(=O)N[C@H]1[C@H]([C@H](O)[C@H](O)CO)OC(C(=O)O)=C[C@@H]1N=C(N)N`, the concentration giving a half-maximal response (EC50) (as a rule, the concentration that produces a half-maximal response) was 2.23 nM in the assay on wt H5N6 virus and 0.5 nM in the assay with wt H5N2 virus.

Take oseltamivir carboxylate: the IC50 (as a rule, the concentration that inhibits the measured activity by half) at H5N2 wt NA came out at 0.14 nM; on H5N6 wt NA, 0.96 nM; on H5N8 wt NA, 1.35 nM. The EC50 with wt H5N6 virus was 2.27 nM; in the assay with wt H5N2 virus it was 0.2 nM.

Regarding peramivir, the IC50 on H5N2 wt NA came to 0.09 nM; at H5N6 wt NA, 0.08 nM; at H5N8 wt NA, 0.04 nM. For the same molecule, the results for the EC50 in the assay on wt H5N6 virus and in the assay on wt H5N2 virus were 0.15 nM and 0.06 nM, respectively.

For the origin of these results see PMC7534037.
